In patent publication US20040258699A1 (published 2004):

Columns and labels:
[1] = molecular target: T1, PA83 (anthrax protective antigen, 83 kDa form) (Bacillus anthracis, UniProt P13423 30-764)
[2] = molecular target: T2, PA63 (anthrax protective antigen, 63 kDa form) (Bacillus anthracis, UniProt P13423 197-764)
[3] = molecular target: T2, PA63 (anthrax protective antigen, 63 …); experiment: SPR (Biacore), immobilized PA63
[4] = molecular target: T1, PA83 (anthrax protective antigen, 83 …); experiment: SPR (Biacore)
[5] = molecular target: T2, PA63 (anthrax protective antigen, 63 …); experiment: SPR (Biacore), immobilized PA63, kd/ka
[6] = molecular target: T1, PA83 (anthrax protective antigen, 83 …); experiment: SPR (Biacore), kd/ka

B1: Fab 83L8E (Fab, V domains shown)
VH: EVQLVESGGGEVQPGRSLRLSCAASGFIFRSFGMHWVRQAPGKGLEWVAAISYDGTNKDYGDSVKGRFTISRDNSRNMVYLQMNSLRAEDTAVYYCAKEGVIIPAATKDRSNYFDYWGQGTLVTVSS
VL: QAVLTQPSSLSASPGASASLTCTLRSGFYVGSYMINWYQQKPGSPPQFLLRYRSDSDIQRGSGVPSRFSGSKDTSANAGILLISGLQPEDEADYYCMIWHIDTVFFGGGSKLTVL
Q: With B1 as the binder, how does the “IC50 (read off the curve)” value [1] read?
A: The value was ~0.4 µg/mL.

B2: Fab 83K7C (Fab, V domains shown)
VH: QVQLVQSGAEVKKPGASVKVSCKASGYTFTYYAMHWVRQAPGQRPEWMGWINGGDGKTKYAQKFQGRLAITRDTSARTAYMELISLTSEDTAVYYCAKGAEMTVGSWGPGTLVTVSS
VL: DIQMTQSPSSLSASVGDRVTLTCRASQGVRNALVWYQQKPGKAPERLIYAASILQSGVPSRFSGSGSGTEFTLTIGGLQPEDFATYYCLQHNSYPWTFGQGTKVEIK
Q: B2 was tested. Which EC50 [2] did it give?
A: Its EC50 is < 1 µg/mL.

Q: What about the koff [3] of the same binder?
A: The koff was 8.5e-05 s⁻¹.

Q: What about the kon [3] of the same binder?
A: The kon was 97700 M⁻¹ s⁻¹.

Q: What about the koff [4] of the same binder?
A: Its koff is 0.000426 s⁻¹.

Q: What about the kon [4] of the same binder?
A: Its kon is 116000 M⁻¹ s⁻¹.

Q: What about the Kd [5] of the same binder?
A: Its Kd is 0.87 nM.

Q: What about the Kd [6] of the same binder?
A: The Kd was 3.67 nM.
